# Experimental data: US20240317834A1, “COMPOSITIONS AND METHODS FOR NEUROLOGICAL DISEASES” (CODA BIOTHERAPEUTICS, published 2024)
# Substitutions are numbered along the chain they refer to.
# T1: CODA1027 (R101F, L131D in SEQ ID NO: 33) (human (chimera of human α7-nAChR and …))
# T1 chain: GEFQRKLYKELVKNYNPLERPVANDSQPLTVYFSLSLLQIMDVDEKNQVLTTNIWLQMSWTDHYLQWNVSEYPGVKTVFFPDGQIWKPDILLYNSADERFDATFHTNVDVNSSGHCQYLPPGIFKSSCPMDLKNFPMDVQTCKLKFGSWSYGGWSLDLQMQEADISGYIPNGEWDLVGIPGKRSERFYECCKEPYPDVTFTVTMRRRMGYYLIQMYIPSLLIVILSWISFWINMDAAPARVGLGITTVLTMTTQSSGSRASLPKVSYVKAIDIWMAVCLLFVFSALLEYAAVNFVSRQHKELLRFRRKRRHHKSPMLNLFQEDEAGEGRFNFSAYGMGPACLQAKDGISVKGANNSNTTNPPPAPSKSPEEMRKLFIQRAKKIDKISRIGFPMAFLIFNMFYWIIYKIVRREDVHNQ
# T2: CODA342 (L131R in SEQ ID NO: 33) (human (chimera of human α7-nAChR and …))
# T2 chain: T1 chain with F79R, D109R
# T3: CODA283 (Y115E_N379K in SEQ ID NO: 33) (human (chimera of human α7-nAChR and …))
# T3 chain: T1 chain with F79R, Y93E, D109L, N357K
# T4: CODA1025 (R101F, L131G in SEQ ID NO: 33) (human (chimera of human α7-nAChR and …))
# T4 chain: T1 chain with D109G
# T5: CODA282 (Y115D in SEQ ID NO: 33) (human (chimera of human α7-nAChR and …))
# T5 chain: T1 chain with F79R, Y93D, D109L
# T6: CODA805 (Y115D, S170T in SEQ ID NO: 33) (human (chimera of human α7-nAChR and …))
# T6 chain: T1 chain with F79R, Y93D, D109L, S148T
# B1: α-bungarotoxin conjugated to Alexa Fluor 647 (ligand)
# chain: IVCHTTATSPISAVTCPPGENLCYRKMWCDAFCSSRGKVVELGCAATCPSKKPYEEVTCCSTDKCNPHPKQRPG
# How the values were obtained:
# [1] = molecular target: T1, CODA1027 (R101F, L131D in SEQ ID NO: 33)
# [2] = molecular target: T2, CODA342 (L131R in SEQ ID NO: 33)
# [3] = molecular target: T3, CODA283 (Y115E_N379K in SEQ ID NO: 33)
# [4] = molecular target: T4, CODA1025 (R101F, L131G in SEQ ID NO: 33)
# [5] = molecular target: T5, CODA282 (Y115D in SEQ ID NO: 33)
# [6] = molecular target: T6, CODA805 (Y115D, S170T in SEQ ID NO: 33)
binder,measurement,setting,value
B1,Normalized AB %,[1],0.5 ratio to SEQ ID NO: 33 control
same,Normalized AB MFI,[1],0.68 ratio to SEQ ID NO: 33 control
same,Normalized AB %,[2],0.61 ratio to SEQ ID NO: 33 control
same,Normalized AB MFI,[2],1.24 ratio to SEQ ID NO: 33 control
same,Normalized AB MFI,[3],1.31 ratio to SEQ ID NO: 33 control
same,Normalized AB %,[4],0.46 ratio to SEQ ID NO: 33 control
same,Normalized AB %,[5],1.23 ratio to SEQ ID NO: 33 control
same,Normalized AB MFI,[5],1.04 ratio to SEQ ID NO: 33 control
same,Normalized AB MFI,[6],0.93 ratio to SEQ ID NO: 33 control
